Pooled drug test results. Numbers come from NIAID ChemDB, via PubChem.

Common to all: tests in culture; species: Candida tropicalis

MIC50, MIC90 and the like: level of inhibition, or share of isolates inhibited. Conditions beyond the fields shown may differ between rows.

{"structure": "C=CCc1ccc(O)c(OC)c1", "read by": "turbidity", "strain": "3177", "endpoint": "MIC90", "value": "490 µg/mL"}
{"structure": "CC(=O)Nc1ccc(S(=O)(=O)N(n2sc3ccccc3c2=O)S(=O)(=O)c2ccc(NC(C)=O)cc2)cc1", "strain": "ATCC 1369", "endpoint": "MIC100", "value": ">100 µg/mL"}
{"structure": "OC(CCn1ccnc1)c1ccc(-c2ccccc2)cc1", "read by": "broth dilution", "strain": "RTCC 1065", "endpoint": "MIC", "value": ">64 µg/mL"}
{"structure": "CCCCN(Cc1cn(Cc2ccc([N+](=O)[O-])cc2)nn1)CC(O)(Cn1cncn1)c1ccc(F)cc1F", "endpoint": "MIC80", "value": "8 µg/mL"}
{"structure": "Cc1ccccc1/C=C1\\SC(=O)N(CC(O)(Cn2nccn2)c2ccc(F)cc2F)C1=O", "endpoint": "MIC80", "value": ">100 µg/mL"}
{"structure": "C[C@H]1[C@H](O)[C@@H](C)/C=C/C=C/C=C/C=C/C=C/C=C/C=C/[C@H](O[C@@H]2O[C@H](C)[C@@H](O)[C@H](N)[C@@H]2O)C[C@@H]2O[C@](O)(C[C@@H](O)C[C@@H](O)CC[C@H](O)[C@@H](O)C[C@@H](O)CC(=O)O[C@H]1C)C[C@H](O)[C@H]2C(=O)O", "read by": "absorbance", "strain": "MTCC 1406", "endpoint": "MIC", "value": "1 µg/mL"}
{"structure": "O=C1S/C(=C\\c2ccc(Cl)cc2Cl)C(=O)N1CC(O)(Cn1nccn1)c1ccc(F)cc1F", "endpoint": "MIC80", "value": "0.0078 µg/mL"}
{"structure": "O=C(Cc1ccccc1)OC1CCN(CC(O)(Cn2cncn2)c2ccc(F)cc2F)CC1", "read by": "broth dilution", "endpoint": "MIC80", "value": "0.137 µM"}
{"structure": "C[C@@H](c1ncncc1F)[C@](O)(Cn1cncn1)c1ccc(F)cc1F", "strain": "38 isolates", "endpoint": "MIC50", "value": "≤0.06 µg/mL"}
{"structure": "C/C(=N/O)C(Cl)(Cl)Cl", "endpoint": "MIC", "value": "3220 µM"}
{"structure": "COC(=O)c1ccc(N2C(=O)C(OC(C)=O)C2c2ccc(OC)cc2)cc1", "strain": "CP/K92", "endpoint": "MIC", "value": "33.87 µM"}
{"structure": "Cc1ccc(C(O)c2cccc(C(=O)CCn3ccnc3)c2)cc1", "read by": "broth dilution", "strain": "RTCC 1095", "endpoint": "MIC", "value": ">64 µg/mL"}
{"structure": "CCCCN(Cc1cn(Cc2cccc([N+](=O)[O-])c2)nn1)CC(O)(Cn1cncn1)c1ccc(F)cc1F", "endpoint": "MIC80", "value": "8 µg/mL"}
{"structure": "O=C1C(OS(=O)(=O)c2ccc([N+](=O)[O-])cc2)C(c2ccccc2)N1c1ccccc1", "strain": "CP/K92", "endpoint": "MIC", "value": "7.04 µM"}
{"structure": "CCCCN(Cc1cn(Cc2c(Cl)cccc2Cl)nn1)CC(O)(Cn1cncn1)c1ccc(F)cc1F", "endpoint": "MIC80", "value": "8 µg/mL"}
{"structure": "O=C1c2ccccc2CC1Cn1ccnc1", "read by": "broth dilution", "strain": "RTCC 1095", "endpoint": "MIC", "value": ">64 µg/mL"}
{"structure": "C=C1CC(C/C(C)=C/COc2ccc3ccc(=O)oc3c2)OC1=O", "strain": "MTCC 184", "endpoint": "MIC", "value": "39 µg/mL"}
{"structure": "O/N=C\\c1ccc(O)cc1", "read by": "broth dilution", "endpoint": "MFC", "value": ">7290 µM"}
{"structure": "O=C(/C=C/c1ccccc1)OC1CCN(CC(O)(Cn2cncn2)c2ccc(F)cc2F)CC1", "read by": "broth dilution", "endpoint": "MIC80", "value": "0.033 µM"}
{"structure": "CC(=O)Nc1ccc(S(=O)(=O)N(n2sc3ccc(C)cc3c2=O)S(=O)(=O)c2ccc(NC(C)=O)cc2)cc1", "strain": "ATCC 1369", "endpoint": "MIC100", "value": ">100 µg/mL"}
{"structure": "O=C1CSC(=O)N1CC(O)(Cn1nccn1)c1ccc(F)cc1F", "endpoint": "MIC80", "value": "0.71 µg/mL"}
{"structure": "O/N=C\\c1ccccc1", "endpoint": "MIC100", "value": "4130 µM"}
{"structure": "CCCCN(Cc1cn(Cc2ccc(Br)cc2)nn1)CC(O)(Cn1cncn1)c1ccc(F)cc1F", "endpoint": "MIC80", "value": "8 µg/mL"}
{"structure": "O=C1S/C(=C\\c2ccccn2)C(=O)N1CC(O)(Cn1nccn1)c1ccc(F)cc1F", "endpoint": "MIC80", "value": "9.02 µg/mL"}
{"structure": "COC(=O)c1ccc(N2C(=O)C(OC(C)=O)C2c2ccccc2)cc1", "strain": "CP/K92", "endpoint": "MIC", "value": "17.69 µM"}
{"structure": "O=C(/C=C/c1ccc(F)cc1)OC1CCN(CC(O)(Cn2cncn2)c2ccc(F)cc2F)CC1", "read by": "broth dilution", "endpoint": "MIC80", "value": "0.129 µM"}
{"structure": "O=C(O)c1ccc(C[C@H](C(=O)O)[C@@H](O)C(=O)O)cc1", "strain": "KKP 334", "endpoint": "MIC", "value": ">4 µg/mL"}
{"structure": "Nc1ccc(S(=O)(=O)Nn2sc3ccccc3c2=O)cc1", "strain": "ATCC 1369", "endpoint": "MIC100", "value": ">100 µg/mL"}
{"structure": "CCCCCCCCCCCCCCCCn1cc[n+](C)c1", "read by": "broth dilution", "strain": "57A", "endpoint": "MIC", "value": "0.014 µg/mL"}
{"structure": "O/N=C\\c1ccccc1Cl", "endpoint": "MIC100", "value": "1420 µM"}
{"structure": "CCCC(C)(C)C(=O)OC1CCN(CC(O)(Cn2cncn2)c2ccc(F)cc2F)CC1", "read by": "broth dilution", "endpoint": "MIC80", "value": "0.573 µM"}
{"structure": "O=C1S/C(=C\\c2ccc(Br)cc2)C(=O)N1CC(O)(Cn1nccn1)c1ccc(F)cc1F", "endpoint": "MIC80", "value": "1.92 µg/mL"}
{"structure": "Nc1ccc(S(=O)(=O)N(n2sc3ccccc3c2=O)S(=O)(=O)c2ccc(N)cc2)cc1", "strain": "ATCC 1369", "endpoint": "MIC100", "value": ">100 µg/mL"}
{"structure": "O=C(/C=C/c1ccc(Cl)cc1Cl)OC1CCN(CC(O)(Cn2cncn2)c2ccc(F)cc2F)CC1", "read by": "broth dilution", "endpoint": "MIC80", "value": "0.466 µM"}
{"structure": "COc1ccc(/C=N/O)cc1", "endpoint": "MIC100", "value": "3310 µM"}
{"structure": "N#Cc1ccc(/C=C/C(=O)OC2CCN(CC(O)(Cn3cncn3)c3ccc(F)cc3F)CC2)cc1", "read by": "broth dilution", "endpoint": "MIC80", "value": "0.127 µM"}
{"structure": "CCCCN(Cc1cn(Cc2ccc(C)cc2)nn1)CC(O)(Cn1cncn1)c1ccc(F)cc1F", "endpoint": "MIC80", "value": "<0.125 µg/mL"}

For reference, 4 entries again:

O/N=C\c1ccccc1Cl ; endpoint: MIC100 ; value: 1420 µM
CCCCN(Cc1cn(Cc2ccc(C)cc2)nn1)CC(O)(Cn1cncn1)c1ccc(F)cc1F ; endpoint: MIC80 ; value: <0.125 µg/mL
O=C1S/C(=C\c2ccc(Cl)cc2Cl)C(=O)N1CC(O)(Cn1nccn1)c1ccc(F)cc1F ; endpoint: MIC80 ; value: 0.0078 µg/mL
C/C(=N/O)C(Cl)(Cl)Cl ; endpoint: MIC ; value: 3220 µM